Pooled drug test results. Numbers come from NIAID ChemDB, via PubChem.

Common to all: target-level tests; agent: HIV-1; target: Reverse transcriptase

a–b is a range or a potency band. Blank or dashed fields: not listed here. ICn: concentration for n% inhibition. Conditions beyond the fields shown may differ between rows.

compound,mutations,strain,method,measure,value
Cc1c(Cc2c(F)cccc2F)nc(N(C)C)[nH]c1=O,RT-L100I,IIIB,nucleotide incorporation / radiometric,IC50,10 µM
O=c1c(O)c(-c2ccc(O)c(O)c2)oc2cc(O)cc(O)c12,-,IIIB,nucleotide incorporation,IC50,635 µM
CCN1c2ncc(CCOc3ccc(C(=O)O)c4ccccc34)cc2C(=O)Nc2c(C)cc(Cl)nc21,RT-V106A,-,nucleotide incorporation / radiometric,IC50,0.1–1 µM
COc1ccc(Sc2nc(Cc3c(Cl)cccc3Cl)c(C)c(=O)[nH]2)cc1,Y181I,-,-,IC50,>400 µM
COC(=O)[C@H](Cc1c[nH]c2ccccc12)NP(=O)(O)OC[C@H]1O[C@@H](n2cc(C)c(=O)[nH]c2=O)C[C@@H]1N=[N+]=[N-],-,-,radiometric,IC50,>100 µM
Nc1cc(Cl)nc(SC/C=C/c2ccccc2)n1,-,RT-WT,nucleotide incorporation,IC50,0.19 µM
CCN1c2ncc(CCOc3ccc(/C=C(\C)C(=O)O)c4ccccc34)cc2C(=O)Nc2c(C)cc(F)nc21,RT-Y188L,-,nucleotide incorporation / radiometric,IC50,>1 µM
CC(C)=CCNC(C)Cn1c(=S)[nH]c2ccccc21,-,-,RT activity,IC50,>100 µg/mL
COC(=O)[C@@H](Cc1c[nH]c2ccccc12)NC(=O)OC[C@H]1O[C@@H](n2cc(C)c(=O)[nH]c2=O)C[C@@H]1N=[N+]=[N-],-,-,radiometric,IC50,>100 µM
Nc1nc(=O)n([C@H]2C=C[C@@H](COP(=O)(O)OP(=O)(O)OP(=O)(O)O)O2)cc1F,-,-,-,IC50,0.27 µM
O=C(CC1(O)C(=O)Nc2ccccc21)c1ccccc1,-,-,RT activity / absorbance,IC50,>100 µM
Cc1ccccc1-c1nc2ccccc2n1Cc1c(F)cccc1F,-,-,-,IC50,<10 µM
CCN1c2ncc(CCOc3ccc(C(=O)O)c4ccccc34)cc2C(=O)N(C)c2ccc(Cl)nc21,RT-V106A,-,nucleotide incorporation / radiometric,IC50,0.1–1 µM
Cc1cc(C)cc(S(=O)(=O)c2c(C(=O)Nc3ccc(O)cc3)[nH]c3ccc(Cl)cc23)c1,Y181I,-,RT activity / radiometric,IC50,0.061 µM
Oc1ccc(-c2c3nc(c(-c4ccc(O)cc4)c4ccc([nH]4)c(-c4ccc(O)cc4)c4nc(c(-c5ccc(O)cc5)c5ccc2[nH]5)C=C4)C=C3)cc1,-,-,nucleotide incorporation,IC50,3 µM
CC(=O)O[C@H]1c2c(c3c(c4c(-c5ccccc5)cc(=O)oc24)OC(C)(C)C=C3)O[C@H](C)[C@H]1C,-,IIIB,scintillation proximity / radiometric,IC50,0.125 µM
CNC(=O)[C@H](Cc1ccccc1)NC(=O)OC[C@H]1O[C@@H](n2cc(C)c(=O)[nH]c2=O)C[C@@H]1N=[N+]=[N-],-,-,radiometric,IC50,>100 µM
CC(Cn1c(=S)[nH]c2ccccc21)N(C)Cc1ccccc1,-,-,RT activity,IC50,>100 µg/mL
CC(C)=CCOc1cc(NC(=S)c2ccoc2C)ccc1Cl,RT-V106A,-,-,IC50,3.2 µM
O=C(CC1(O)C(=O)Nc2ccc(Cl)cc21)c1cccc(Cl)c1,-,-,RT activity / absorbance,IC50,34.25 µM
Cc1c(C(C)c2c(F)cccc2F)nc(N(C)C)[nH]c1=O,RT-L100I,-,nucleotide incorporation / radiometric,Ki,1.2 µM
Nc1ncnc2c1ncn2CCOCP(=O)(O)OP(=O)(O)OP(=O)(O)O,-,-,nucleotide incorporation / radiometric,Ki,0.09 µM
COc1c(O)c(I)c2c(c1OC)-c1c(c(I)c(O)c(OC)c1OC)C[C@H](C)[C@H](C)C2,-,-,-,IC50,0.8 µM
Cc1cccc2c1nc(-c1ccc3ccccc3c1)n2Cc1c(F)cccc1F,-,-,-,IC50,>10 µM
C=C(C)[C@@H]1CC[C@]2(C)CCC3(C)[C@H](CC[C@@H]4[C@@]5(C)CC[C@H](O)C(C)(C)[C@@H]5CC[C@]43C)[C@@H]12,-,-,RT activity / nucleotide incorporation / fluorescence,IC50,>100 µM
Cc1cccc2c1nc(-c1cccnc1)n2Cc1c(F)cccc1F,-,-,-,IC50,>10 µM
COc1cccc(-c2c3nc(c(-c4cccc(OC)c4)c4ccc([nH]4)c(-c4cccc(OC)c4)c4nc(c(-c5cccc(OC)c5)c5ccc2[nH]5)C=C4)C=C3)c1,-,-,nucleotide incorporation,IC50,>100 µM
O=C(CC1(O)C(=O)Nc2ccc(Cl)cc21)c1ccc(F)cc1,-,-,RT activity / absorbance,IC50,5.92 µM
COc1ccc(C=O)cc1O,-,-,RT activity / nucleotide incorporation / fluorescence,IC50,>100 µM
CNC(=O)[C@H](Cc1c[nH]c2ccccc12)NC(=O)OC[C@H]1O[C@@H](n2cc(C)c(=O)[nH]c2=O)C[C@@H]1N=[N+]=[N-],-,-,radiometric,IC50,>100 µM
O=C(O)c1cc(O)c(O)c(O)c1,-,IIIB,nucleotide incorporation,IC50,>1000 µM
O=C(O[C@@H]1Cc2c(O)cc(O)cc2O[C@@H]1c1cc(O)c(O)c(O)c1)c1cc(O)c(O)c(O)c1,-,-,-,IC50,0.02 µM
Cc1c(Cc2c(F)cccc2F)nc(Sc2ccc(F)cc2F)[nH]c1=O,Y181I,-,-,IC50,>400 µM
O=S(=O)(c1ccccc1)n1c(-c2c(F)cccc2F)nc2ccccc21,-,-,-,IC50,~10 µM
Nc1ccn([C@H]2O[C@@H](COP(=O)(CP(=O)(O)O)OP(=O)(O)O)C(O)[C@H]2O)c(=O)n1,-,-,RNase H,Ki,225 µM
Cc1c(Cc2c(F)cccc2F)nc(Sc2ccccc2)[nH]c1=O,Y181I,-,-,IC50,>400 µM
COc1ccccc1C(=O)CC1(O)C(=O)Nc2ccccc21,-,-,RT activity / absorbance,IC50,14.18 µM
O=c1c(O[C@@H]2O[C@H](CO)[C@H](O)[C@H](O)[C@H]2O)c(-c2ccc(O)c(O)c2)oc2cc(O)cc(O)c12,-,IIIB,nucleotide incorporation,IC50,1000 µM
Nc1ccnc2c1ccn2[C@H]1CC[C@@H](COP(=O)(O)OP(=O)(O)OP(=O)(O)O)O1,-,-,RT activity,IC50,>1000 µM
O=c1c(-c2ccc(O)cc2)coc2cc(O)cc(O)c12,-,-,RT activity / fluorescence,IC50,>100 µg/mL
Cc1c(Sc2ccccc2)n(COCCO)c(=O)[nH]c1=O,RT-V108I,-,-,IC50,~1 µM
O=P(O)(O)OP(=O)(O)O,-,-,-,IC50,>400 µM
O=c1c(O[C@@H]2O[C@H](CO)[C@@H](O)[C@H](O)[C@H]2O)c(-c2ccc(O)cc2)oc2cccc(O)c12,-,IIIB,nucleotide incorporation,IC50,125 µM
COc1ccccc1C(=O)CC1(O)C(=O)Nc2ccc(Br)cc21,-,-,RT activity / absorbance,IC50,0.82 µM
Nc1cccc2c1ccn2[C@H]1CC[C@@H](COP(=O)(O)OP(=O)(O)OP(=O)(O)O)O1,-,-,RT activity,IC50,23.7 µM
O=C(CC1(O)C(=O)Nc2ccc(Br)cc21)c1ccccc1,-,-,RT activity / absorbance,IC50,5.22 µM
COC(=O)[C@H](Cc1ccccc1)NP(=O)(O)OC[C@H]1O[C@@H](n2cc(C)c(=O)[nH]c2=O)C[C@@H]1N=[N+]=[N-],-,-,radiometric,IC50,>100 µM
Oc1cccc(-c2c3nc(c(-c4cccc(O)c4)c4ccc([nH]4)c(-c4cccc(O)c4)c4nc(c(-c5cccc(O)c5)c5ccc2[nH]5)C=C4)C=C3)c1,-,-,nucleotide incorporation,IC50,5 µM
Nc1nc(=O)n([C@H]2C=C[C@@H](COP(=O)(O)OP(=O)(O)OP(=O)(O)O)O2)cc1F,-,-,-,IC50,0.28 µM
Oc1cc(O)c2c(c1)O[C@H](c1cc(O)c(O)c(O)c1)[C@@H](O)C2,-,-,RT activity / fluorescence,IC50,>100 µg/mL
Cc1cn([C@H]2C[C@H](n3nncc3C)[C@@H](COP(=O)(O)OP(=O)(O)OP(=O)(O)O)O2)c(=O)[nH]c1=O,-,LAV,RT activity,IC50,>50 µM
CC1(C)C(O[C@@H]2O[C@H](C(=O)O)[C@@H](O)[C@H](O)[C@H]2O[C@@H]2O[C@H](C(=O)O)[C@@H](O)[C@H](O)[C@H]2O)CC[C@]2(C)C3=CC=C4C5C[C@@](C)(C(=O)O)CC[C@]5(C)CC[C@@]4(C)[C@]3(C)CCC12,-,-,nucleotide incorporation / radiometric,IC50,3.1 µg/mL
Cc1c(Cc2c(Cl)cccc2Cl)nc(Sc2ccccc2)[nH]c1=O,RT-K103N,-,-,IC50,>400 µM
Nc1ccccc1-c1c2nc(c(-c3ccccc3N)c3ccc([nH]3)c(-c3ccccc3N)c3nc(c(-c4ccccc4N)c4ccc1[nH]4)C=C3)C=C2,-,-,nucleotide incorporation,IC50,>100 µM
CC(C)=CCN1Cc2cccc3[nH]c(=S)n(c23)C[C@@H]1C,-,-,nucleotide incorporation,IC50,10 µM
C=CC1=C(C)c2cc3[n-]c(cc4[n-]c(cc5nc(cc1n2)C(C)=C5C=C)c(C)c4CCC(=O)O)c(CCC(=O)O)c3C.[Mg+2],-,-,nucleotide incorporation / radiometric,IC50,<15 µM
CC(C)=CCN1Cc2cccc3[nH]c(=S)n(c23)C[C@@H]1C,RT-Q161L,-,-,Ki,0.89 µM
Cc1cccc2c1nc(-c1ccncc1)n2Cc1c(F)cccc1F,-,-,-,IC50,<10 µM
Cc1cccc(CSc2nc(N)cc(Cl)n2)c1,RT-P236L,-,nucleotide incorporation,IC50,0.045 µM
Cc1cccc2c1ncn2Cc1c(F)cccc1F,-,-,-,IC50,>10 µM
CCN1c2ncc(CCOc3ccc(/C(C)=C/C(=O)O)c4ccccc34)cc2C(=O)N(C)c2cccnc21,-,WT,nucleotide incorporation / radiometric,IC50,<0.1 µM
Cc1c(C(C)c2c(F)cccc2F)nc(SC2CCCC2)[nH]c1=O,-,-,nucleotide incorporation,IC50,0.005 µM
CCOc1ccc(-c2c3nc(c(-c4ccc(OCC)cc4)c4ccc([nH]4)c(-c4ccc(OCC)cc4)c4nc(c(-c5ccc(OCC)cc5)c5ccc2[nH]5)C=C4)C=C3)cc1,-,-,nucleotide incorporation,IC50,>100 µM
Oc1cc(O)c2c(c1)O[C@@H](c1ccc(O)c(O)c1)[C@@H](O)C2,-,-,RT activity / fluorescence,IC50,>100 µg/mL
C=C(CC(=O)O)c1ccc(OCCc2cnc3c(c2)C(=O)N(C)c2cccnc2N3CC)c2ccccc12,RT-K103N Y181C,-,nucleotide incorporation / radiometric,IC50,0.1–1 µM
Cc1cccc2c1nc(-c1c(F)cccc1F)n2Cc1c(Cl)cccc1Cl,-,-,-,IC50,~10 µM
CCOC1(c2ccccc2)c2cc(Cl)ccc2NC(=O)N1C,-,-,-,IC50,0.056 µM
COc1ccc([C@@H]2CC(=O)c3c(O)cc(O)cc3O2)cc1O,-,-,RT activity / fluorescence,IC50,>100 µg/mL
Cc1cn([C@H]2CC[C@@H](COP(=O)(O)OP(=O)(O)OP(=O)(O)O)O2)c(=O)[nH]c1=O,RT-K103N,-,RT activity,Ki,0.015 µM
CCN1c2ncc(CCOc3ccc(S(N)(=O)=O)c4ccccc34)cc2C(=O)N(C)c2cccnc21,RT-Y188L,-,nucleotide incorporation / radiometric,IC50,0.1–1 µM
O=C(CC1(O)C(=O)Nc2ccc(Cl)cc21)c1cccc([N+](=O)[O-])c1,-,-,RT activity / absorbance,IC50,58.51 µM
Cc1c(Sc2ccccc2)n(COCCO)c(=O)[nH]c1=O,-,-,nucleotide incorporation,IC50,37 µM

A second listing of 5 rows from above:

| compound | mutations | strain | method | measure | value |
|---|---|---|---|---|---|
| O=P(O)(O)OP(=O)(O)O | - | - | - | IC50 | >400 µM |
| CC(C)=CCOc1cc(NC(=S)c2ccoc2C)ccc1Cl | RT-V106A | - | - | IC50 | 3.2 µM |
| COc1ccc(Sc2nc(Cc3c(Cl)cccc3Cl)c(C)c(=O)[nH]2)cc1 | Y181I | - | - | IC50 | >400 µM |
| Oc1cccc(-c2c3nc(c(-c4cccc(O)c4)c4ccc([nH]4)c(-c4cccc(O)c4)c4nc(c(-c5cccc(O)c5)c5ccc2[nH]5)C=C4)C=C3)c1 | - | - | nucleotide incorporation | IC50 | 5 µM |
| COc1c(O)c(I)c2c(c1OC)-c1c(c(I)c(O)c(OC)c1OC)C[C@H](C)[C@H](C)C2 | - | - | - | IC50 | 0.8 µM |